Pooled drug test results. Numbers come from NIAID ChemDB, via PubChem.

Common to all: host cell toxicity; cell line: MT-4; measure: CC50

An empty or dashed field is not shown.

structure | read by | result
CC(C)(C)OC(=O)NCCC(=O)N(CC(=O)CN(Cc1ccccc1)C(=O)CCNC(=O)OC(C)(C)C)Cc1ccccc1 |  | 10 µM
COc1cc(/C=C/c2nc(NC(=O)Nc3ccc(C)cc3)c3ccccc3n2)cc(OC)c1OC | MTT | 2.75 µg/mL
Cc1nc(CCCCCCC(=O)c2ccccc2)n2nc(NCCCCCCCCCCCCN)ccc12 |  | >10 µM
CC(C)(C)OC(=O)N(CCCN(Cc1ccccc1)C(=O)OC(C)(C)C)CCC(=O)N(CC(=O)CN(Cc1ccccc1)C(=O)CCN(CCCN(Cc1ccccc1)C(=O)OC(C)(C)C)C(=O)OC(C)(C)C)Cc1ccccc1 |  | 50 µM
COc1cc(/C=C/c2nc(NC(=S)Nc3cccc(C)c3)c3ccccc3n2)cc(OC)c1OC | MTT | 5.46 µg/mL
Cc1cccc(N2C(=O)CSC2c2c(Cl)cccc2Cl)n1 |  | 242.2 µM
CC(C)c1c(Cc2ccccc2)n(CCCCC(N)=O)c(=O)[nH]c1=O |  | >100 µM
Clc1ccc(-c2csc(N/N=C/c3ccco3)n2)cc1 | MTT | 27.9 µM
CC(C)(C)OC(=O)N(CCC(=O)N(Cc1ccccc1)CC(O)CN(Cc1ccccc1)C(=O)CCN(Cc1ccccc1)C(=O)OC(C)(C)C)Cc1ccccc1 |  | 10 µM
CCc1cccc(N2C(=O)CSC2c2c(F)cccc2F)c1 |  | 39.14 µM
O=C(NCCCCCCN1CCC[C@@H]2C[C@@H]3C[C@@H](CN4CCCC[C@H]34)[C@@H]21)c1ccc(OC(F)(F)F)cc1 | luminescence | >20 µM
Cc1cccc(N2C(=O)CSC2c2c(Cl)cccc2Cl)c1 |  | 20.8 µM
COc1cc(/C=C/c2nc(NC(=O)Nc3ccc(Cl)cc3)c3ccccc3n2)cc(OC)c1OC | MTT | 4.97 µg/mL
CC(C)c1c(Cc2ccccc2)n(CCCO)c(=O)[nH]c1=O |  | >100 µM
C=C(C)C(=O)OCCOP(=O)(O)O |  | >43 µg/mL
CC(CO[C@@H]1O[C@H](COS(=O)(=O)O)[C@@H](OS(=O)(=O)O)[C@H](O[C@@H]2O[C@H](COS(=O)(=O)O)[C@@H](OS(=O)(=O)O)[C@H](O[C@@H]3O[C@H](COS(=O)(=O)O)[C@@H](OS(=O)(=O)O)[C@H](O[C@@H]4O[C@H](COS(=O)(=O)O)[C@@H](OS(=O)(=O)O)[C@H](O[C@@H]5O[C@H](COS(=O)(=O)O)[C@@H](OS(=O)(=O)O)[C@H](OS(=O)(=O)O)[C@H]5OS(=O)(=O)O)[C@H]4OS(=O)(=O)O)[C@H]3OS(=O)(=O)O)[C@H]2OS(=O)(=O)O)[C@H]1OS(=O)(=O)O)CC(C)(C)C |  | >1000 µg/mL
CC(CC(F)(OC(F)(F)C(F)(F)C(F)(F)F)C(F)(F)F)(C(=O)OCCOP(=O)(O)O)C(F)(OC(F)(F)C(F)(F)C(F)(F)F)C(F)(F)F |  | >100 µg/mL
CC(C)[C@@H]1CC[C@@H](C)C[C@H]1O[C@@H]1O[C@H](COS(=O)(=O)O)[C@@H](OS(=O)(=O)O)[C@H](O[C@@H]2O[C@H](COS(=O)(=O)O)[C@@H](OS(=O)(=O)O)[C@H](O[C@@H]3O[C@H](COS(=O)(=O)O)[C@@H](OS(=O)(=O)O)[C@H](O[C@@H]4O[C@H](COS(=O)(=O)O)[C@@H](OS(=O)(=O)O)[C@H](O[C@@H]5O[C@H](COS(=O)(=O)O)[C@@H](OS(=O)(=O)O)[C@H](OS(=O)(=O)O)[C@H]5OS(=O)(=O)O)[C@H]4OS(=O)(=O)O)[C@H]3OS(=O)(=O)O)[C@H]2OS(=O)(=O)O)[C@H]1OS(=O)(=O)O |  | >1000 µg/mL
O=C(NCCCCCCN1CCC[C@@H]2C[C@@H]3C[C@@H](CN4CCCC[C@H]34)[C@@H]21)c1c(F)cc(Br)cc1F | luminescence | >20 µM
Oc1ccccc1/C=N/Nc1nc(-c2ccc(Cl)cc2)cs1 | MTT | 102 µM
O=C1CSC(c2c(F)cccc2F)N1c1cccc(Cl)c1 |  | 44.2 µM
CCOCn1c(Cc2ccccc2)c(C(C)C)c(=O)[nH]c1=O |  | 53 µM
O=c1[nH]c(=O)n([C@H]2C=C[C@@H](CO)O2)cc1CO |  | 27.5 µM
Clc1ccc(-c2csc(N/N=C/c3ccccn3)n2)cc1 | MTT | 2.19 µM
O=C(NCCCCCCN1CCCC2=C[C@@H]3C[C@@H](CN4CCCC[C@H]34)[C@@H]21)c1c(F)cc(Cl)cc1F | luminescence | >20 µM
COc1cc(/C=C/c2nc(NC(=S)Nc3ccc([N+](=O)[O-])cc3)c3ccccc3n2)cc(OC)c1OC | MTT | 3.87 µg/mL
CC(CC(F)(OC(F)(F)C(F)(OC(F)(F)C(F)(F)C(F)(F)F)C(F)(F)F)C(F)(F)F)(C(=O)OCCOP(=O)(O)O)C(F)(OC(F)(F)C(F)(OC(F)(F)C(F)(F)C(F)(F)F)C(F)(F)F)C(F)(F)F |  | >100 µg/mL
O=C(NCCCCCN1CCCC2=C[C@@H]3C[C@@H](CN4CCCC[C@H]34)[C@@H]21)c1c(F)cc(Br)cc1F | luminescence | >20 µM
O=C1CSC(c2c(F)cccc2F)N1c1ccccc1 |  | 38.1 µM
CC(C)(C)OC(=O)NCCC(=O)N(Cc1ccccc1)CC(O)CN(Cc1ccccc1)C(=O)CCNC(=O)OC(C)(C)C |  | 10 µM
COc1cc(/C=C/c2nc(NC(=S)Nc3cccc(Cl)c3)c3ccccc3n2)cc(OC)c1OC | MTT | 3.25 µg/mL
COC(=O)Cn1c(Cc2ccccc2)c(C(C)C)c(=O)[nH]c1=O |  | >100 µM
Cc1cn([C@H]2C=C[C@@H](CO)O2)c(=O)[nH]c1=O |  | >100 µM
CCCCCCCCO[C@@H]1O[C@H](COS(=O)(=O)O)[C@@H](OS(=O)(=O)O)[C@H](O[C@@H]2O[C@H](COS(=O)(=O)O)[C@@H](OS(=O)(=O)O)[C@H](O[C@@H]3O[C@H](COS(=O)(=O)O)[C@@H](OS(=O)(=O)O)[C@H](O[C@@H]4O[C@H](COS(=O)(=O)O)[C@@H](OS(=O)(=O)O)[C@H](OS(=O)(=O)O)[C@H]4OS(=O)(=O)O)[C@H]3OS(=O)(=O)O)[C@H]2OS(=O)(=O)O)[C@H]1OS(=O)(=O)O |  | >1000 µg/mL
O=[N+]([O-])c1ccc(-c2csc(N/N=C/c3cccnc3)n2)cc1 | MTT | 62.4 µM
O=C1CSC(c2c(F)cccc2Cl)N1c1cccc(Br)c1 |  | 30.1 µM
Cc1nc(CCCCCCC(=O)c2ccccc2)n2nc(NCCCCCCCCNCc3cn([C@H]4C=C[C@@H](CO)O4)c(=O)[nH]c3=O)ccc12 |  | >10 µM
CCOC(=O)CCCCCn1c(Cc2ccccc2)c(C(C)C)c(=O)[nH]c1=O |  | >100 µM
Cc1nc(CCCCCCC(=O)c2ccccc2)n2nc(Cl)ccc12 |  | >10 µM
Cc1cc(C)cc(N2C(=O)CSC2c2c(F)cccc2Cl)c1 |  | 33.35 µM
O=C(NCCCN1CCCC2=C[C@@H]3C[C@@H](CN4CCCC[C@H]34)[C@@H]21)c1c(F)cc(Br)cc1F | luminescence | >20 µM
Cc1nc(CCCCCCC(=O)c2ccccc2)n2nc(NCCCCCCCCCCNCc3cn([C@H]4C=C[C@@H](CO)O4)c(=O)[nH]c3=O)ccc12 |  | 24.5 µM
COc1cc(/C=C/c2nc(NC(=S)Nc3ccc(C)cc3)c3ccccc3n2)cc(OC)c1OC | MTT | 1.7 µg/mL

A second listing of 6 rows from above:

{"structure": "Cc1cccc(N2C(=O)CSC2c2c(Cl)cccc2Cl)c1", "result": "20.8 µM"}
{"structure": "O=C1CSC(c2c(F)cccc2Cl)N1c1cccc(Br)c1", "result": "30.1 µM"}
{"structure": "CC(C)(C)OC(=O)N(CCC(=O)N(Cc1ccccc1)CC(O)CN(Cc1ccccc1)C(=O)CCN(Cc1ccccc1)C(=O)OC(C)(C)C)Cc1ccccc1", "result": "10 µM"}
{"structure": "O=C(NCCCCCCN1CCC[C@@H]2C[C@@H]3C[C@@H](CN4CCCC[C@H]34)[C@@H]21)c1c(F)cc(Br)cc1F", "read by": "luminescence", "result": ">20 µM"}
{"structure": "O=C(NCCCCCN1CCCC2=C[C@@H]3C[C@@H](CN4CCCC[C@H]34)[C@@H]21)c1c(F)cc(Br)cc1F", "read by": "luminescence", "result": ">20 µM"}
{"structure": "Cc1nc(CCCCCCC(=O)c2ccccc2)n2nc(NCCCCCCCCCCNCc3cn([C@H]4C=C[C@@H](CO)O4)c(=O)[nH]c3=O)ccc12", "result": "24.5 µM"}

CCn: concentration that lowers growth or viability of the cells by n%. Rows are shuffled and stem from different studies.